Anti-infective test results gathered from many reports (values: NIAID ChemDB through PubChem).

Shared fields: enzyme or target tests; organism: HIV-1; protein: Reverse transcriptase; read by: nucleotide incorporation; endpoint: inhibition

Conditions beyond the fields shown may differ between rows.

structure | dose | value
N#CC1C=Cc2ccccc2N1C(=O)Oc1ccc(Cl)cc1 | 50 µM | 47%
CCOc1ccccc1CCNC(=S)Nc1nccs1 | 1 µg/mL | 30%
CC(=O)Nc1ccc2[nH]c(C(=O)N3CCN(c4ncccc4NC(C)C)CC3)cc2c1 | 100 µM | 86%
O=C(NCCc1ccccc1)Nc1ccn[nH]1 | 0.1 µg/mL | 1%
CC(C)COC(=O)N1c2ccc([N+](=O)[O-])cc2C=CC1C#N | 50 µM | 68.6%
CC(C)Nc1cccnc1OCCOC(=O)c1cc2ccccc2[nH]1 | 100 µM | 67%
COC(=O)COc1cccc2cnccc12 | 100 µM | 20%
O=C(NCCc1ccccc1)NCc1ccoc1 | 1 µg/mL | 12%
O=C(c1ccc(Nc2ccnc3cc(C(F)(F)F)ccc23)cc1)N1CCN(S(=O)(=O)c2ccc(Cl)cc2)CC1 | 100 µM | 37%
C=C(C)OC(=O)N1c2ccc(OC)cc2C=CC1C#N | 50 µM | ≤30%
O=C(NCCc1ccccc1)Nc1nc2ccc(Cl)cc2s1 | 0.1 µg/mL | 12%
CCCC(C)c1cc2c(=O)cc(C(=O)OC)[nH]c2c2c(=O)cc(C(=O)OC)[nH]c12 | 100 µM | 68%
CCOc1ccc2nc(NC(=O)NCCc3ccccc3)sc2c1 | 10 µg/mL | 8%
CC(C)Nc1ccnnc1N1CCN(C(=O)c2cc3cc(F)ccc3[nH]2)CC1 | 100 µM | 88%
CCOc1cc(-c2nccc3cc(OC)c(OC)cc23)cc(OCC)c1OCC | 100 µM | 65%
CCOC(=O)N1c2ccc(F)cc2C=CC1C#N | 50 µM | ≤30%
O=C(O)/C=C\C(=O)O.O=C(c1ccccc1)N1CCN(C(=O)c2ccc(Nc3ccnc4cc(C(F)(F)F)ccc34)cc2)CC1 | 100 µM | 36%
N#CC1C=Cc2ccccc2N1C(=O)c1cccnc1Nc1cccc([N+](=O)[O-])c1 | 50 µM | ≤30%
Cc1cccc2sc(NC(=O)NCCc3ccccc3)nc12 | 10 µg/mL | 24%
NOCc1c(F)cccc1Cl | 0.8 µg/mL | 0.9%
CCN1c2ncc(CCc3ccccc3)cc2-c2nnsc2-c2cccnc21 | 1 µM | 96%
N#CC1C=Cc2ccccc2N1C(=O)OCCOc1ccccc1 | 50 µM | 47.8%
O=C(NCCc1ccccc1)Nc1nncs1 | 1 µg/mL | 14%
CC(C)Nc1cccnc1N(C)CCN(C)C(=O)c1cc2ccccc2[nH]1 | 100 µM | 83.5%
CCOC(=O)N1c2ccc(NC(C)=O)cc2C=CC1C#N | 50 µM | ≤30%
CC(C)(C)c1csc(NC(=O)NCCc2ccccc2)n1 | 10 µg/mL | 15%
O=C(c1ccc(Nc2ccnc3cc(Cl)ccc23)cc1)N1CCOCC1 | 100 µM | 22%
CCNc1cccnc1N1CCN(CCc2cc(C)c(O)c(C)c2)CC1 | 100 µM | 24%
CCN1c2ncccc2-c2nnsc2-c2cccnc21 | 1 µM | 70%
CCCOC(=O)Nc1ccc2c(c1)C=CC(C#N)N2C(=O)OCCC | 50 µM | ≤30%

Again, the opening 4 rows:

structure,dose,value
N#CC1C=Cc2ccccc2N1C(=O)Oc1ccc(Cl)cc1,50 µM,47%
CCOc1ccccc1CCNC(=S)Nc1nccs1,1 µg/mL,30%
CC(=O)Nc1ccc2[nH]c(C(=O)N3CCN(c4ncccc4NC(C)C)CC3)cc2c1,100 µM,86%
O=C(NCCc1ccccc1)Nc1ccn[nH]1,0.1 µg/mL,1%

Percent inhibition refers to the dose given; in toxicity tests it is the harm to the cells.